Results deposited as PubChem BioAssay AID1259414 (Drosophila RNAi Screening Center, 2018).
Aim: 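Host factors increasing or decreasing Wolbachia levels in cultured fly cells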 (primary screen). Cell system: Drosophila JW18 cells infected with Wolbachia. Reagent: long dsRNA against Drosophila genes, 0.25 µg dsRNA per well of a 384-well plate. Time to read-out: 5 days. Conditions: cells persistently infected with Wolbachia before knock-down; no added drug. Measured: 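Imaged fluorescence in situ signal for Wolbachia 23S rRNA per DAPI-counted host cell, given as a robust z-score within each plate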. Scale: Wolbachia per cell robust z: higher = more Wolbachia per host cell than the plate typical. Rule for the call: 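Hit when robust z is 1.5 or more, or -1.5 or less, in at least two of three replicates; excludes dsRNAs with several or no targets, genes not expressed in JW18 and well A1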.
The deposit covers about 24,000 reagents; below is a random part of those that have a named target and a result. In the full data, about 1,210 (5%) got an active call. 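Inactive calls also include excluded dsRNAs with several or no targets, genes unexpressed in JW18, and well A1, regardless of score.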

For CG15876 [DRSC08484], what was measured?
Wolbachia per cell robust z, rep 1: -2.07; Wolbachia per cell robust z, rep 2: -0.846; Wolbachia per cell robust z, rep 3: -7.16; outcome: inactive

What did the screen give for CG15876 [DRSC27697]?
Wolbachia per cell robust z, rep 1: -0.509; Wolbachia per cell robust z, rep 2: -0.398; Wolbachia per cell robust z, rep 3: 0.358; outcome: inactive

With cnir [DRSC00499], how do the results read?
Wolbachia per cell robust z, rep 1: -1.57; Wolbachia per cell robust z, rep 2: -1.19; Wolbachia per cell robust z, rep 3: -0.111; outcome: inactive

What is on record for cnir [DRSC26787]?
Wolbachia per cell robust z, rep 1: 0.753; Wolbachia per cell robust z, rep 2: 1.06; Wolbachia per cell robust z, rep 3: 1.36; outcome: inactive

How did the screen score Rab9Fb [DRSC19854]?
Wolbachia per cell robust z, rep 1: 0.0829; Wolbachia per cell robust z, rep 2: 0.482; Wolbachia per cell robust z, rep 3: -4.49; outcome: inactive

What did the screen give for GlnRS [DRSC14140]?
Wolbachia per cell robust z, rep 1: 1.23; Wolbachia per cell robust z, rep 2: 0.274; Wolbachia per cell robust z, rep 3: 0.295; outcome: inactive

For NPF [DRSC17019], what does the deposit list?
Wolbachia per cell robust z, rep 1: -0.548; Wolbachia per cell robust z, rep 2: 0.0024; Wolbachia per cell robust z, rep 3: 0.0253; outcome: inactive

How did the screen score Cpr12A [DRSC19722]?
Wolbachia per cell robust z, rep 1: -2.98; Wolbachia per cell robust z, rep 2: -4.94; Wolbachia per cell robust z, rep 3: -0.335; outcome: inactive

How did the screen score CG9427 [DRSC16490]?
Wolbachia per cell robust z, rep 1: 0.518; Wolbachia per cell robust z, rep 2: -0.568; Wolbachia per cell robust z, rep 3: 0.189; outcome: inactive

With CG9427 [DRSC28856], how do the results read?
Wolbachia per cell robust z, rep 1: -1.61; Wolbachia per cell robust z, rep 2: -0.00449; Wolbachia per cell robust z, rep 3: 0.206; outcome: inactive

Which result is listed for CG13891 [DRSC08361]?
Wolbachia per cell robust z, rep 1: 0.446; Wolbachia per cell robust z, rep 2: -1.16; Wolbachia per cell robust z, rep 3: 0.407; outcome: inactive

How did the screen score CG13891 [DRSC25733]?
Wolbachia per cell robust z, rep 1: 0.833; Wolbachia per cell robust z, rep 2: 1.24; Wolbachia per cell robust z, rep 3: -0.416; outcome: inactive

What is on record for CG11353 [DRSC08182]?
Wolbachia per cell robust z, rep 1: -8.69; Wolbachia per cell robust z, rep 2: 0.543; Wolbachia per cell robust z, rep 3: -0.66; outcome: inactive

What did the screen give for egl [DRSC23380]?
Wolbachia per cell robust z, rep 1: -1.72; Wolbachia per cell robust z, rep 2: 0.547; Wolbachia per cell robust z, rep 3: -0.36; outcome: inactive

For CG16782 [DRSC18118], how do the results read?
Wolbachia per cell robust z, rep 1: 0.614; Wolbachia per cell robust z, rep 2: 1.39; Wolbachia per cell robust z, rep 3: 0.873; outcome: inactive

With dpr19 [DRSC02237], what does the deposit list?
Wolbachia per cell robust z, rep 1: 0.385; Wolbachia per cell robust z, rep 2: -1.54; Wolbachia per cell robust z, rep 3: -2.1; outcome: active

Active calls, of those listed so far:
dpr19 [DRSC02237] — Wolbachia per cell robust z, rep 1: 0.385; Wolbachia per cell robust z, rep 2: -1.54; Wolbachia per cell robust z, rep 3: -2.1; outcome: active
